# Results as given in US20050090428A1, “Porphyrins with virucidal activity” (priority 2002, published 2005).
# System: HIV-1 IIIB
# Assay: Screening for virucidal activity against HIV-1 IIIB, MAGI cell assay
substance,measurement,value
"sulfonated 5,10,15,20-tetra-naphthalen-1-yl-porphyrin [TNapPS]",selective index CC50/EC50,15
